Assay results from patent US20080112933A1 (priority 2004, published 2008).

Columns and labels:
lymph node lymphocytes = assay type: in vivo, mouse; settings: lymph node lymphocytes treated with the agent; FIG. 7
bone marrow lin− cells = assay type: cell-based, mouse; settings: bone marrow lin− cells pretreated with the agent; FIG. 5

## pertussis toxin
Lymph node lymphocytes
  homing of lymphocytes to the lymph nodes: almost completely abolish lymphocyte homing
Bone marrow lin− cells
  transmigration towards SDF-1α: decrease in transmigration similar to that observed for the chemokinesis controls
